Values from PubChem BioAssay AID624099 (ICCB-Longwood, 2012)
Here is one part, drawn at random, of about 21,000 reagents tested. In the full data, 497 (2.4%) were called active. 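Higher z means weaker E2 silencing; only reporter increases were scored, and knock-downs that hurt cell survival may mask genuine repressor factors.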 Reagents against one gene are numbered here. No sequences are given here.

Screen: 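Human genes that papillomavirus E2 requires to repress the HPV18 LCR promoter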 (primary screen)
Cells: human C33A cervical carcinoma cells (HPV-negative) stably expressing BPV1 E2 and an HPV18 LCR luciferase reporter
Knock-down reagent: siRNA pool against human genes, 40 nM
Timing: 72 h
Measurement: 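Per-well luciferase luminescence, z-scored on each plate against the plate mean and SD with control wells left out, then averaged across three replicate plates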
Reading the numbers: mean z-score and z-score: higher = stronger reporter signal, weaker E2 silencing
Active means: 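Mean z ≥ 2 together with z ≥ 2 in two or more of the three replicates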

CENATAC showed mean z-score 1.51; z-score, replicate A = 1.98; z-score, replicate B = 1.45; z-score, replicate C = 1.1; inactive.
FAM171B showed mean z-score 1.24; z-score, replicate A = 1.28; z-score, replicate B = 1.31; z-score, replicate C = 1.13; inactive.
DSTYK gave mean z-score 0.34; z-score, replicate A = 0.28; z-score, replicate B = 0.42; z-score, replicate C = 0.32; inactive.
HLA-F-AS1 gave mean z-score 0.88; z-score, replicate A = 0.71; z-score, replicate B = 0.78; z-score, replicate C = 1.16; inactive.
With knock-down of LOC392549 (retired record) the results were mean z-score 1.66; z-score, replicate A = 1.12; z-score, replicate B = 1.69; z-score, replicate C = 2.17; inactive.
For JHY, the entry reads mean z-score -0.54; z-score, replicate A = -0.04; z-score, replicate B = -0.88; z-score, replicate C = -0.7; inactive.
Depletion of PAQR5 gave: mean z-score -0.03; z-score, replicate A = 0.02; z-score, replicate B = -0.09; z-score, replicate C = -0.02; inactive.

2 neighbouring records from above:
HLA-F-AS1 → mean z-score = 0.88; z-score, replicate A = 0.71; z-score, replicate B = 0.78; z-score, replicate C = 1.16; Call = inactive
LOC392549 (retired record) → mean z-score = 1.66; z-score, replicate A = 1.12; z-score, replicate B = 1.69; z-score, replicate C = 2.17; Call = inactive

The results go on.
PCK2 showed mean z-score 1.16; z-score, replicate A = 0.95; z-score, replicate B = 1.43; z-score, replicate C = 1.1; inactive.
Against USP54 the deposit lists mean z-score 1.14; z-score, replicate A = 1.28; z-score, replicate B = 0.94; z-score, replicate C = 1.22; inactive.
Silencing of COL10A1 resulted in: mean z-score -0.54; z-score, replicate A = -0.57; z-score, replicate B = -0.58; z-score, replicate C = -0.47; inactive.
Knock-down of SLC7A4 resulted in: mean z-score 0.22; z-score, replicate A = 0.37; z-score, replicate B = 0.02; z-score, replicate C = 0.28; inactive.
CDR2 gave mean z-score -0.31; z-score, replicate A = -0.46; z-score, replicate B = -0.1; z-score, replicate C = -0.36; inactive.
Against AHDC1 the deposit lists mean z-score 0.3; z-score, replicate A = 0.24; z-score, replicate B = 0.34; z-score, replicate C = 0.31; inactive.
With knock-down of SCP2, the screen gave mean z-score -0.26; z-score, replicate A = -0.21; z-score, replicate B = -0.22; z-score, replicate C = -0.36; inactive.
Depletion of COPS5 gave: mean z-score -0.78; z-score, replicate A = -0.79; z-score, replicate B = -0.87; z-score, replicate C = -0.7; inactive.
Silencing of UBL7 gave: mean z-score -0.26; z-score, replicate A = -0.14; z-score, replicate B = -0.21; z-score, replicate C = -0.44; inactive.
With knock-down of USP33 the results were mean z-score 0.03; z-score, replicate A = 0.06; z-score, replicate B = 0.06; z-score, replicate C = -0.03; inactive.
For LAMTOR4 #1 the deposit lists mean z-score -0.35; z-score, replicate A = -0.1; z-score, replicate B = -0.35; z-score, replicate C = -0.61; inactive.
LAMTOR4 #2 scored mean z-score -1.13; z-score, replicate A = -1.14; z-score, replicate B = -1.32; z-score, replicate C = -0.93; inactive.
Knock-down of LINC02783 resulted in: mean z-score 1.95; z-score, replicate A = 2.77; z-score, replicate B = 1.44; z-score, replicate C = 1.63; inactive.
With knock-down of SIRPB2, the screen gave mean z-score 0.22; z-score, replicate A = 0.06; z-score, replicate B = 0.01; z-score, replicate C = 0.59; inactive.
